Experimental data taken from publication PMC6504873, “High-throughput screening of the Plasmodium falciparum cGMP-dependent protein kinase identified a thiazole scaffold which kills erythrocytic and sexual stage parasites” (Scientific Reports, 2019).
Where two headings read alike, the source gives them in different places.

The chains behind the UniProt entries cited, without tags or fusion partners.
UniProt Q13976, whole entry: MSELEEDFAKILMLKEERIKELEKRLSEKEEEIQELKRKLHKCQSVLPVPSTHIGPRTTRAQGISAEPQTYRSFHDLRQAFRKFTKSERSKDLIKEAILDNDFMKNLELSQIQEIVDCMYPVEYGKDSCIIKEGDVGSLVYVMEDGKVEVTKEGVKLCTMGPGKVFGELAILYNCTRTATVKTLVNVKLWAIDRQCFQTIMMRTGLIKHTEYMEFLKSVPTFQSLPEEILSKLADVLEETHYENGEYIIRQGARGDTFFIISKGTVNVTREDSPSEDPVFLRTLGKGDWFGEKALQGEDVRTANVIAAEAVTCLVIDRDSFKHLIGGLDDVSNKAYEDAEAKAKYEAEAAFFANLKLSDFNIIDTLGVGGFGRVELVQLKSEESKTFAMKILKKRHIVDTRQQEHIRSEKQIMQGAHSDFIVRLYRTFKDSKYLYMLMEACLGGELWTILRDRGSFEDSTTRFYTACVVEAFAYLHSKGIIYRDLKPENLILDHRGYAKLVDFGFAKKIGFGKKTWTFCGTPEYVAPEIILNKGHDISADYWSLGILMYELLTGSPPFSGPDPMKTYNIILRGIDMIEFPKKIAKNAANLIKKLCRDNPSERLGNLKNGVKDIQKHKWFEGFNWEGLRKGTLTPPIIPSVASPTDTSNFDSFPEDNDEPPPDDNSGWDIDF
UniProt Q8I719, whole entry: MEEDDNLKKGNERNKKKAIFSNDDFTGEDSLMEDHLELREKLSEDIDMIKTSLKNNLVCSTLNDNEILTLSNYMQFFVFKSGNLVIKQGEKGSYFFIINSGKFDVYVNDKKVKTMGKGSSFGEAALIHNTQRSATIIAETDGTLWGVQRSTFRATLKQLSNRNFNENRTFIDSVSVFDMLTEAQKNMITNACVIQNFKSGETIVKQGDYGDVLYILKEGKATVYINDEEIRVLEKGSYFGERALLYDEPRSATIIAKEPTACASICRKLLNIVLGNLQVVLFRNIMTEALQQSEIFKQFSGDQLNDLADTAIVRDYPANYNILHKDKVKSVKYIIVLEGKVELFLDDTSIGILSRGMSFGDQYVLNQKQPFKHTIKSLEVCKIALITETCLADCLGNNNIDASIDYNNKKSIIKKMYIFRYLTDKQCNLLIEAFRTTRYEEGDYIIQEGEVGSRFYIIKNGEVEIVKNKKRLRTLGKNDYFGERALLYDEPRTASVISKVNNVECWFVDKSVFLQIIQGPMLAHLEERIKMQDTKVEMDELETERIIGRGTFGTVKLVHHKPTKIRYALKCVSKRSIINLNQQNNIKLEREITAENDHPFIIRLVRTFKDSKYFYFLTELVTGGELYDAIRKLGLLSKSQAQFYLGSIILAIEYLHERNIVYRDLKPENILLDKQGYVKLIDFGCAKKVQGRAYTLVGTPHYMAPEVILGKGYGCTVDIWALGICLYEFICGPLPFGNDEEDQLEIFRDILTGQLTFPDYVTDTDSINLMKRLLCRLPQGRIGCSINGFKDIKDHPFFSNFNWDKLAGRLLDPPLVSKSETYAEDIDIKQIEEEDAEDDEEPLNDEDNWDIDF
UniProt Q8I719, whole entry T618Q: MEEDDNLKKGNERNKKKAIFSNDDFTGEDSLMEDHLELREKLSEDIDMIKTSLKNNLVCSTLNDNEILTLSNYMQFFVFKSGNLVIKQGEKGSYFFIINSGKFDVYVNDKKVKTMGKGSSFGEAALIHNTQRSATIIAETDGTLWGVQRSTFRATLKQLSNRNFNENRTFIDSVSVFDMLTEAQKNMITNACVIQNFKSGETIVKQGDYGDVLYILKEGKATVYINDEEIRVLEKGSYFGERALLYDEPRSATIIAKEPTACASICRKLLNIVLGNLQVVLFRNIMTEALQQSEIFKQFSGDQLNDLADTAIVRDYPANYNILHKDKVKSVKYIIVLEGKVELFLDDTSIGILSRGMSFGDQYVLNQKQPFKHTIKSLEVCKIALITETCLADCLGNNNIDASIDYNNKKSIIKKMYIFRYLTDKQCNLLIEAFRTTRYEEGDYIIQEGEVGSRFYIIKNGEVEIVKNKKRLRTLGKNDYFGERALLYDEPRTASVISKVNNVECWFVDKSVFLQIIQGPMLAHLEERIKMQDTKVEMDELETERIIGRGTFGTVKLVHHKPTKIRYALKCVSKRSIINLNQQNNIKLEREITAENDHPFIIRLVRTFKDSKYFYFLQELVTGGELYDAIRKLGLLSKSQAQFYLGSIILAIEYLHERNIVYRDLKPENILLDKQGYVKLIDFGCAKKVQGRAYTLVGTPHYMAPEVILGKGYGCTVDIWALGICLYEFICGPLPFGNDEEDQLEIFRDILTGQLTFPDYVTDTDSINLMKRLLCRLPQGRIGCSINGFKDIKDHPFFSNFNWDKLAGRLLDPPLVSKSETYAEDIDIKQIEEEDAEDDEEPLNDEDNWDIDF

Assays:
HuPKGIα = HuPKGIα (Homo sapiens, UniProt Q13976); experiment: Kinase Glo enzymatic assay, human PKG; format: biochemical; details: read-out: Hu PKGIα, human PKGIα
WT PfPKG [1] = biological target: T1, WT PfPKG (Plasmodium falciparum, UniProt Q8I719); details: read-out: WT PfPKG, recombinant WT PfPKG
TQ PfPKG (PfPKG_T618Q) = TQ PfPKG (PfPKG_T618Q) (Plasmodium falciparum, UniProt Q8I719, T618Q); details: read-out: TQ PfPKG, gatekeeper mutant TQ PfPKG
WT PfPKG [2] = biological target: T1, WT PfPKG; details: for LE: ligand efficiency; for LLE: lipophilic ligand efficiency

Structure (SMILES) | IC50 (HuPKGIα) [µM] | IC50 (WT PfPKG [1]) [µM] | IC50 (TQ PfPKG (PfPKG_T618Q)) [µM] | LE (WT PfPKG [2]) | LLE (WT PfPKG [2]) | other results
NCc1ccc(-c2nc(-c3cc(O)ccc3Br)c(-c3ccncc3)[nH]2)cc1 |  |  |  |  |  | IC50 (HuPKGIα; tested form: HCl): 42.7 µM; IC50 (WT PfPKG [1]; tested form: HCl): 0.006 µM; IC50 (TQ PfPKG (PfPKG_T618Q); tested form: HCl): 11.7 µM; LE (WT PfPKG [2]; tested form: HCl): 0.4; LLE (WT PfPKG [2]; tested form: HCl): 4.7
FC(F)(F)c1cccc(-c2ncn(CC3CC3)c2-c2ccncc2)c1 | > 100 | 0.479 | > 100 | 0.35 | 2.3 | 
CC(C)(CN)c1nc(-c2ccc(Cl)c(Cl)c2)c(-c2ccncc2)[nH]1 |  |  |  |  |  | IC50 (HuPKGIα; tested form: HCl): > 100 µM; IC50 (WT PfPKG [1]; tested form: HCl): 0.008 µM; IC50 (TQ PfPKG (PfPKG_T618Q); tested form: HCl): 18.8 µM; LE (WT PfPKG [2]; tested form: HCl): 0.46; LLE (WT PfPKG [2]; tested form: HCl): 4.7
COCCN1CCC(CNCC(C)(C)c2nc(-c3ccc(Cl)c(O)c3)c(-c3ccncc3)[nH]2)CC1 |  |  |  |  |  | IC50 (HuPKGIα; tested form: HCl): > 100 µM; IC50 (WT PfPKG [1]; tested form: HCl): 0.02 µM; IC50 (TQ PfPKG (PfPKG_T618Q); tested form: HCl): > 100 µM; LE (WT PfPKG [2]; tested form: HCl): 0.3; LLE (WT PfPKG [2]; tested form: HCl): 4.5
CC(C)(CNCc1nccs1)c1nc(-c2ccc(Cl)c(O)c2)c(-c2ccncc2)[nH]1 |  |  |  |  |  | IC50 (HuPKGIα; tested form: HCl): > 100 µM; IC50 (WT PfPKG [1]; tested form: HCl): 0.011 µM; IC50 (TQ PfPKG (PfPKG_T618Q); tested form: HCl): > 100 µM; LE (WT PfPKG [2]; tested form: HCl): 0.36; LLE (WT PfPKG [2]; tested form: HCl): 5.0
CC(C)(C)Cn1nc(-c2ccc3scnc3c2)c(C(N)=O)c1N | > 100 | 0.094 | > 100 | 0.4 | 4.9 | 
COc1cc(-c2nc(C(C)(C)CN)[nH]c2-c2ccncc2)ccc1Cl | > 100 | 0.0017 | 66.8 | 0.5 | 6.1 | 
CC(C)(CN1CCCCC1)c1nc(-c2ccnc(N)n2)c(-c2ccc(Cl)c(O)c2)[nH]1 |  |  |  |  |  | IC50 (HuPKGIα; tested form: HCl): > 100 µM; IC50 (WT PfPKG [1]; tested form: HCl): 0.014 µM; IC50 (TQ PfPKG (PfPKG_T618Q); tested form: HCl): 50.1 µM; LE (WT PfPKG [2]; tested form: HCl): 0.36; LLE (WT PfPKG [2]; tested form: HCl): 4.3
Nc1nccc(-c2[nH]c(C3CCOCC3)nc2-c2cccc(NS(=O)(=O)c3ccoc3)c2F)n1 | > 100 | 0.005 | 22.6 | 0.34 | 7.3 | 
N#Cc1ccc(-c2nc(-c3ccncc3)c(-c3ccccn3)[nH]2)cc1 | > 100 | 0.989 | > 100 | 0.33 | 3.4 | 
COc1ccc(-c2nc(S(=O)(=O)C(C)C)[nH]c2-c2ccncc2)cc1 | > 100 | 0.002 | > 100 | 0.5 | 5.8 | 
O=C(O)c1cccc(-c2nn3ccccc3c2-c2ccncc2)c1 | > 100 | 0.468 | > 100 | 0.36 | 3.1 | 
CCn1nc(-c2ccc3cc(C(O)c4cccnc4)[nH]c3c2)c(C(N)=O)c1NC (stereo not shown) | > 100 | 0.053 | > 100 | 0.34 | 7.1 | 
c1cncc(-c2n[nH]cc2-c2ccncc2)c1 | > 100 | 0.733 | > 100 | 0.5 | 5.2 | 
N#Cc1ccc(-c2nc(-c3ccncc3)c(-c3ccncc3)[nH]2)cc1 | > 100 | 0.617 | > 100 | 0.34 | 3.9 | 
CC(C)(CNS(C)(=O)=O)c1nc(-c2ccc(Cl)c(O)c2)c(-c2ccncc2)[nH]1 |  |  |  |  |  | IC50 (HuPKGIα; tested form: HCl): > 100 µM; IC50 (WT PfPKG [1]; tested form: HCl): 0.00851 µM; IC50 (TQ PfPKG (PfPKG_T618Q); tested form: HCl): > 100 µM; LE (WT PfPKG [2]; tested form: HCl): 0.4; LLE (WT PfPKG [2]; tested form: HCl): 6.1
CC(C)(C(=O)N1CCCC1)c1nc(-c2ccc(Cl)c(Cl)c2)c(-c2ccncc2)[nH]1 |  |  |  |  |  | IC50 (HuPKGIα; tested form: HCl): > 100 µM; IC50 (WT PfPKG [1]; tested form: HCl): 0.05 µM; IC50 (TQ PfPKG (PfPKG_T618Q); tested form: HCl): 20.4 µM; LE (WT PfPKG [2]; tested form: HCl): 0.35; LLE (WT PfPKG [2]; tested form: HCl): 3.5
NC(=O)c1c(-c2ccc3c(c2)OCO3)nn(-c2ccc(F)cc2F)c1N |  |  |  |  |  | IC50 (HuPKGIα; tested form: TFA): > 100 µM; IC50 (WT PfPKG [1]; tested form: TFA): 0.398 µM; IC50 (TQ PfPKG (PfPKG_T618Q); tested form: TFA): > 100 µM; LE (WT PfPKG [2]; tested form: TFA): 0.34; LLE (WT PfPKG [2]; tested form: TFA): 3.9

Structure (SMILES) | IC50 (HuPKGIα) [µM] | IC50 (WT PfPKG [1]) [µM] | IC50 (TQ PfPKG (PfPKG_T618Q)) [µM] | LE (WT PfPKG [2]) | LLE (WT PfPKG [2]) | other results
CCC(C)n1nc(-c2ccc(OCC(C)C)cc2)c(C(N)=O)c1NC (stereo not shown) | > 100 | 0.457 | > 100 | 0.35 | 2.7 | 
CNc1c(C(N)=O)c(-c2ccc3scnc3c2)nn1-c1cccc(F)c1 | > 100 | 0.432 | > 100 | 0.34 | 3.5 | 
COc1ccc(-c2n[nH]cc2-c2ccncn2)cc1 | > 100 | 0.272 | > 100 | 0.47 | 5.0 | 
CNc1nccc(-c2c(-c3ccc(F)cc3)ncn2[C@H](CO)CC(C)C)n1 | > 100 | 0.26 | > 100 | 0.33 | 3.3 | 
CC(C)c1nc(-c2cccc(C(F)(F)F)c2)c(-c2ccnc(NCCO)n2)[nH]1 | > 100 | 0.251 | > 100 | 0.32 | 2.9 | 
OCc1ccn2nc(-c3ccc(F)cc3)c(-c3ccncc3)c2c1 | > 100 | 0.072 | > 100 | 0.4 | 4.1 | 
Nc1[nH]nc(-c2ccncc2)c1-c1ccc2c(c1)OCO2 | > 100 | 0.072 | 7.9 | 0.47 | 5.3 | 
CC(CO)Nc1nccc(-c2c(-c3ccccc3)nn3c2COCC3)n1 (stereo not shown) | > 100 | 0.363 | > 100 | 0.34 | 5.3 | 
CC(C)CNc1[nH]nc(-c2ccc3scnc3c2)c1C(N)=O | > 100 | 0.417 | > 100 | 0.4 | 3.4 | 
CC(C)(C)n1nc(-c2ccc3cc[nH]c3c2)c(C(N)=O)c1N | > 100 | 0.209 | > 100 | 0.4 | 5.1 | 
O=C(O)c1ccc(-c2nc(-c3cccc(O)c3)c(-c3ccncc3)[nH]2)cc1 | > 100 | 0.051 | > 100 | 0.37 | 3.6 | 
CC(=O)NCC(C)(C)c1nc(-c2ccc(Cl)c(O)c2)c(-c2ccncc2)[nH]1 |  |  |  |  |  | IC50 (HuPKGIα; tested form: HCl): > 100 µM; IC50 (WT PfPKG [1]; tested form: HCl): 0.00184 µM; IC50 (TQ PfPKG (PfPKG_T618Q); tested form: HCl): > 100 µM; LE (WT PfPKG [2]; tested form: HCl): 0.44; LLE (WT PfPKG [2]; tested form: HCl): 7.0
Nc1nccc(-c2sc(N)nc2-c2cccc(NS(=O)(=O)c3c(F)cccc3F)c2F)n1 | > 100 | 0.068 | > 100 | 0.3 | 4.6 | 
FC(F)(F)c1cccc(-c2n[nH]cc2-c2ccncc2)c1 | > 100 | 0.023 | > 100 | 0.5 | 4.4 | 
COc1ccc(-c2nn(C(C)(C)C)c(N)c2C(N)=O)cc1 |  |  |  |  |  | IC50 (HuPKGIα; tested form: TFA): > 100 µM; IC50 (WT PfPKG [1]; tested form: TFA): 0.254 µM; IC50 (TQ PfPKG (PfPKG_T618Q); tested form: TFA): > 100 µM; LE (WT PfPKG [2]; tested form: TFA): 0.43; LLE (WT PfPKG [2]; tested form: TFA): 5.1
CC(C)(NS(C)(=O)=O)c1nc(-c2ccc(Cl)c(O)c2)c(-c2ccncc2)[nH]1 |  |  |  |  |  | IC50 (HuPKGIα; tested form: HCl): > 100 µM; IC50 (WT PfPKG [1]; tested form: HCl): 0.006 µM; IC50 (TQ PfPKG (PfPKG_T618Q); tested form: HCl): > 100 µM; LE (WT PfPKG [2]; tested form: HCl): 0.4; LLE (WT PfPKG [2]; tested form: HCl): 6.5
CC(C)(NC(=O)c1cccnc1)c1nc(-c2ccc(Cl)c(O)c2)c(-c2ccncc2)[nH]1 |  |  |  |  |  | IC50 (HuPKGIα; tested form: HCl): > 100 µM; IC50 (WT PfPKG [1]; tested form: HCl): 0.075 µM; IC50 (TQ PfPKG (PfPKG_T618Q); tested form: HCl): > 100 µM; LE (WT PfPKG [2]; tested form: HCl): 0.3; LLE (WT PfPKG [2]; tested form: HCl): 4.2
